Tested on: 105-kDa cell receptor protein
Assay: Virus Overlay Protein Binding Assay (VOPBA) on Vero plasma membrane proteins
Settings: Vero cells, papain 50 mU/ml, without cycloheximide

B1: Papain (protein, UniProt P00784 134-345, looked up)
Papain: IPEYVDWRQKGAVTPVKNQGSCGSCWAFSAVVTIEGIIKIRTGNLNEYSEQELLDCDRRSYGCNGGYPWSALQLVAQYGIHYRNTYPYEGVQRYCRSREKGPYAAKTDGVRQVQPYNEGALLYSIANQPVSVVLEAAGKDFQLYRGGIFVGPCGNKVDHAVAAVGYGPNYILIKNSWGTGWGENGYIRIKRGTGNSYGVCGLYTSSFYPVKN
notes: Papain (EC 3.4.22.2) from Carica papaya, a cysteine endopeptidase
time for virus binding to the 105-kDa protein to reach its original level after removal of the protease: ≤ 4 h
